This passage reports CC50 results from article PMC8746574 (Molecules, 2022).

The data set has as its system TZM-bl cells. Put plainly: MTT cytotoxicity assay in TZM-bl cells. It is filed as cell-based. Particulars: MTT test, 72 h incubation. As to the method:
The cytotoxicity of the obtained compounds was assessed in TZM-bl cells using the MTT test. The preparations were diluted with DMEM medium so that their starting concentration was 1000 μM and the final volume of DMSO was no more than 1%. Additionally, we compared the cytotoxicity of DMEM and medium with 1% DMSO in TZM-bl cells and found no significant differences in cell survival. The measured CC50 values ranged from 7.8 to over 1000 μM (Table 2). […] A range of non-toxic concentrations was determined for each compound and used in subsequent experiments on their antiviral activity.
TZM-bl cells were seeded into 96-well culture plates (100 μL of cell suspension or 10^4 p cells per well) and placed in a CO2 incubator. The test compounds were dissolved in DMSO at a concentration of 100 mM. After 24 h of incubation, various concentrations of the test compounds (1000, 500, 250, 125, 62.5, 31.25, and 15.6 μM) were added by titration to the TZM-bl cell culture, in triplicates. DMSO was added to the control wells at a concentration of no more than 1%. […] The optical density of each well was determined at 570 nm using a Varioscan LUX plate reader (Thermo scientific). The survival rate of TZM-bl cells in the presence of the tested compounds was calculated using the formula: (OD of experimental wells—OD of medium)/(OD of control wells—OD of medium) × 100%, where OD is optical density.
(Formazan colour is commonly taken as a measure of viable cells.)

The term CC50 denotes the concentration at which the toxic effect on the cells reaches its halfway point. A lower CC50 goes with harm at low concentration. Maraviroc [MVC] came in with a CC50 above 1 mM.
